Measured values from several laboratories, pooled; numbers as filed in NIAID ChemDB.

Common to all: toxicity to cultured cells; cells: HeLa; endpoint: CC50

Two numbers with a dash give a range or band.

smiles	method	result
NC(=O)c1cn([C@H]2C[C@H](O)[C@@H](CO)O2)c2ncnc(N)c12		1.5 µM
COc1cc2c(c3c1c(=O)c1ccccc1n3C)C=CC(C)(C)O2		<20 µg/mL
CCOC(=O)/C=C/[C@H](C[C@@H]1CCNC1=O)NC(=O)[C@@H](CC(=O)[C@@H](NC(=O)c1cc(C)on1)C(C)C)Cc1ccc(F)cc1		>100 µM
CCC(=C/C(C)C/C=C/C(C)=C/C(C)C(=O)C(C)C(O)C(C)C/C(C)=C/C(=O)OC)/C=C/C1OC(=O)C=CC1C		0.002 µM
CCOC(=O)C(CCSC[C@H]1O[C@@H](n2ccc3c(N)ncnc32)[C@H](O)[C@@H]1O)NC(=O)C(F)(F)F		100 µg/mL
C[C@@]1(CO)[C@H](O)CC[C@@]2(C)[C@H]1CC[C@H]1C[C@@H]3C[C@@]12CC[C@]3(O)CO		210 µM
O=c1[nH]cnc2c1ncn2[C@H]1CC[C@@H](CO)O1		500 µM
COc1cccc(N/C(SC)=C(\C#N)S(=O)(=O)c2ccccc2)c1	MTT / absorbance	>30 µM
NC(=O)c1nc(F)c[nH]c1=O		>1000 µg/mL
CCC[C@@H]1C[C@@H](C(=O)N[C@@H]([C@H]2O[C@H](SC)[C@H](O)[C@@H](O)[C@H]2O)[C@H](C)Cl)N(C)C1		>100 µg/mL
CC(C)NS(=O)(=O)c1nc(-c2ccc(Cl)cc2)n[nH]1	MTT	>100 µg/mL
N=C(N)c1cn([C@@H]2O[C@H](CO)[C@@H](O)[C@@H]2O)c2ncnc(N)c12		>100 µM
CC(=O)O[C@@H]1CC2CC(=O)[C@]3(C)CC[C@@]2(C3)[C@@]2(C)CCC[C@@](C)(C(=O)O)[C@H]12		253 µM
CS[C@@]12CC3=COC=CC(OC(C)=O)C3N1C(=O)[C@]1(SC)CC3=COC=CC(OC(C)=O)C3N1C2=O		100 µg/mL
CC1=C(/C=C/C(C)=C/C=C/C(C)=C/CO)C(C)(C)CCC1		100 µg/mL
C[C@@]12CC[C@]3(C1)C(C[C@H]2O)C[C@@H](OC(=O)c1ccccc1)[C@H]1[C@](C)(C(=O)O)CCC[C@@]13C		27.3 µM
Nc1nc2c(nnn2C[C@H]2CC[C@@H](CO)C2)c(=O)[nH]1		≥400 µg/mL
Cc1cccc(NCC(=O)NNCc2ccccc2)c1		<185.6 µM
NC(=O)c1c[se]c([C@@H]2O[C@H](CO)[C@@H](O)[C@H]2O)n1		7.9 µM
CCSc1nnc(-c2ccc(F)cc2)o1	MTT	14.42 µg/mL
Cc1cccc(OCCNC(=O)c2c(Cl)ccc3cc(Cl)cnc23)c1		>133.3 µM
NC(=O)c1[nH]nc([C@@H]2O[C@H](CO)[C@@H](O)[C@H]2O)c1O	trypan blue	75 µg/mL
NCc1cccc(-c2cc(=O)n(O)c3ncccc23)c1		0.26 µM
NC(=O)c1csc([C@@H]2O[C@H](CO)[C@@H](O)[C@H]2O)n1		100 µM
Oc1ccc(CNNC(=S)NC2CCCCC2)cc1		136.4 µM
CC(=O)O[C@@H]1CC2C[C@@H](O)[C@H]3[C@](C)(C(=O)O)CCC[C@]3(C)[C@]23CC[C@]1(C)C3		228 µM
CCO[C@@]12CC3=COC=CC(OC(C)=O)C3N1C(=O)[C@]1(S)CC3=COC=CC(OC(C)=O)C3N1C2=O		82 µg/mL
Nc1ccc(-c2nc(=S)[nH][nH]2)cc1	MTT	>100 µg/mL
COCC(=O)NC(CCSC[C@H]1O[C@@H](n2ccc3c(N)ncnc32)[C@H](O)[C@@H]1O)C(=O)O		>400 µg/mL
CC(=C/C(C)C/C=C/C(C)=C/C(C)C(=O)C(C)C(O)C(C)C/C(C)=C/C(=O)O)/C=C/C1OC(=O)C=CC1C		0.0026 µM
CCn1cc(C(=O)O)c(=O)c2cnc(N3CCNCC3)nc21		200 µg/mL
CCCCCCCCCCCCCCCCOP(=O)([O-])OCCC[N+](C)(C)C	MTT	84.4 µM
O=c1cc(N2CCc3ncccc3C2)c2cccnc2n1O		0.42 µM
NC(=S)c1cn([C@@H]2O[C@H](CO)[C@@H](O)[C@@H]2O)c2ncnc(N)c12		2.4 µM
CC(=O)OC1C=COC=C2C[C@@]3(O)C(=O)N4C5C(=COC=CC5OC(C)=O)C[C@@]4(S)C(=O)N3C21		164 µg/mL
Nc1nc(Cl)c2nnn(C[C@H]3CC[C@@H](CO)C3)c2n1		400 µg/mL
C[C@H]1[C@@H](CCCOP(=O)(O)Oc2ccccc2)O[C@@H]2OC3(C)CC[C@H]4[C@H](C)CC[C@@H]1[C@@]24OO3		68.4 µM
CC(=O)O[C@@]12CO[C@@H]1C[C@H](O)[C@@]1(C)C(=O)[C@H](O)C3=C(C)C(OC(=O)/C=C/c4ccc5ccccc5c4)C[C@@](O)([C@@H](OC(=O)c4ccccc4)[C@H]21)C3(C)C	sulforhodamine	45 µM
C[C@]12CCC(=O)C=C1CC[C@@H]1[C@@H]2C(=O)C[C@@]2(C)[C@H]1CC[C@]2(O)C(=O)CO		>10 µg/mL
CCC(=C/C(C)C/C=C/C(C)=C/C(COC(C)=O)C(=O)C(C)C(OC(C)=O)C(C)C/C(C)=C/C(=O)OC)/C=C/C1OC(=O)C=CC1C		0.03 µM
NCCOP(=O)(O)OC[C@H](O)CO		>200 µg/mL
O=c1[nH]cnc2c1ncn2[C@H]1CC[C@@H](CO)O1	MTT	>100 µM
CC(C)(C)CC(C)(C)c1ccc(OCCOP(=O)([O-])OCCC[N+](C)(C)Cc2ccccc2)cc1	MTT	>100 µM
CC(=O)O[C@H]1CC2C[C@@H](OC(=O)c3ccccc3)[C@H]3[C@](C)(C(=O)O)CCC[C@]3(C)[C@]23CC[C@]1(C)C3		45 µM
O=c1[nH]cnc2c1ncn2[C@@H]1C=C(CO)[C@@H](O)[C@H]1O		>5 µg/mL
Nc1nccc2c1ncn2[C@@H]1C[C@H](CO)[C@@H](O)[C@H]1O		1.3 µg/mL
CC1(C)[C@@H]2CC[C@@]1(C)C(=O)[C@H]2Br		50–100 µg/mL
CCCCSc1n[nH]c(-c2ccccc2C)n1	MTT	12.8 µg/mL
Oc1[nH]c2ccccc2c1/C=N/N=C/c1ccco1	MTS	35.4 µM
C/C=C(\C)CC(C)C(O)C(C)C(=O)C(C)/C=C(C)/C=C/CC(C)C(=O)O		0.171 µM
O=C(NCCOc1ccc2c(c1)CCCC2)c1ccccc1Cl		60.1 µM
Nc1ncnc2c1ccn2[C@@H]1O[C@H](CO)[C@@H](O)[C@H]1O		0.0065 µg/mL
COC(=O)N[C@H](C(=O)N1CCC[C@H]1c1nc2ccc(-c3csc4c(-c5ccc(-c6cnc([C@@H]7CCCN7C(=O)[C@H](NC(=O)OC)c7ccccc7)[nH]6)cc5)csc34)cc2[nH]1)C(C)C	resazurin	>50 µM
Nc1cc2[nH]cnc2c(=O)[nH]1	trypan blue	>200 µg/mL
NC(=S)c1cn([C@H]2C[C@H](O)[C@@H](CO)O2)c2ncnc(N)c12		3 µM
C/C=C\C(C)=C\[C@H](C)C(=O)C[C@H](O)CC1CC(=O)NC(=O)C1		195 µM
Nc1ncnc2c([C@H]3CC[C@@H](CCl)O3)[nH]nc12		400 µg/mL
CCCc1cccc(N/C(SC)=C(\C#N)S(=O)(=O)c2ccccc2)c1	MTT / absorbance	26.3 µM
Cc1cccc(OCCNC(=O)c2ccc(N(C)C)cc2Cl)c1		117.5 µM
N#Cc1nc[nH]c1C(N)=O	trypan blue	>500 µg/mL
O=C1N2C3C(=COC=CC3O)CC23SSC12CC1=COC=CC(O)C1N2C3=O		0.9 µg/mL
CS/C(Nc1ccccc1)=C(/C#N)S(=O)(=O)c1ccccc1	MTT / absorbance	>100 µM
Cc1cccc(OCCNC(=O)c2ccccc2C(F)(F)F)c1		>154.7 µM
CCCCCCCCCCCCCCCCOP(=O)([O-])OCCC[N+](C)(C)Cc1ccccc1	MTT	62.1 µM
CCC(=C/C(C)C/C=C/C(C)=C/C(C)C(=O)C(C)C(O)C(C)CC1=CC(=O)OC1)/C=C/C1OC(=O)C=CC1C		0.0017 µM
C[C@H](N)C(=O)N[C@@H](CNC(=O)/C=C/C(N)=O)C(=O)O		>200 µg/mL
CCCCSc1n[nH]c(-c2ccc(O)cc2)n1	MTT	23.56 µg/mL
C#C[C@]1(CO)O[C@@H](n2cnc3c(=O)[nH]cnc32)C[C@@H]1O	MTT	>200 µM
Nc1ncnc2c1ncn2[C@@H]1C=C(CO)[C@@H](O)[C@H]1O		94 µg/mL
Cc1cccc(OCCNC(=O)c2c(Cl)ccc3cc(C)cnc23)c1		>140.9 µM
Nc1ncnc2c1ccn2[C@@H]1O[C@H](CO)[C@H](O)[C@H]1O		4 µg/mL
Cc1cccc(OCCNC(=O)c2ccc(Cl)cc2Cl)c1		124.6 µM
CCCCCCCCCCCCCCCC[N+](C)(C)Cc1ccccc1	MTT	2.8 µM
Fc1ccc(-c2nc(SCC3CC3)n[nH]2)cc1	MTT	6.99 µg/mL
O=C(NCCOc1cccc2ccccc12)c1ccccc1O		19.5 µM

The last 8 rows once more:

smiles,method,result
C#C[C@]1(CO)O[C@@H](n2cnc3c(=O)[nH]cnc32)C[C@@H]1O,MTT,>200 µM
Nc1ncnc2c1ncn2[C@@H]1C=C(CO)[C@@H](O)[C@H]1O,,94 µg/mL
Cc1cccc(OCCNC(=O)c2c(Cl)ccc3cc(C)cnc23)c1,,>140.9 µM
Nc1ncnc2c1ccn2[C@@H]1O[C@H](CO)[C@H](O)[C@H]1O,,4 µg/mL
Cc1cccc(OCCNC(=O)c2ccc(Cl)cc2Cl)c1,,124.6 µM
CCCCCCCCCCCCCCCC[N+](C)(C)Cc1ccccc1,MTT,2.8 µM
Fc1ccc(-c2nc(SCC3CC3)n[nH]2)cc1,MTT,6.99 µg/mL
O=C(NCCOc1cccc2ccccc12)c1ccccc1O,,19.5 µM

Conditions beyond the fields shown may differ between rows. CCn: concentration that lowers growth or viability of the cells by n%. An empty or dashed field is not shown.